Assay [1] has as its target ACE2-hFc (human) (UniProt Q9BYF1).
For assay [2] the target is unchanged. As to the kind of experiment: SPR, ACE2-hFc captured on Protein G. Background: Surface plasmon resonance follows binding to a sensor surface in real time, without labels.
Assay [3] shares this target. The source holds these as a separate data set.
Assay [4] shares this target. This is another data set of the same source.

Read-outs that look alike come from different tables or passages of the source.

A word on the Kd: it is the concentration at which binding is half-saturated.

Take “mInCV02R (SARS CoV-2 RBD N-1) having EIS at the N-terminal (from UniProt P0DTC2 332-532) (ligand; other documents disagree on this pair)”: the Kd came out at 1.8 nM with ACE2-hFc (human) [1], 15 nM with ACE2-hFc (human) [2], 3.9 nM in the assay with ACE2-hFc (human) [3] and 2.5 nM with ACE2-hFc (human) [4].

For the origin of these results see patent publication US20240262869A1.
